Pooled drug test results. Numbers come from NIAID ChemDB, via PubChem.

Common to all: toxicity to cultured cells; cell line: MOLT-4; read-out: CC50

CCn is the concentration with n% toxicity to the cells.

{"smiles": "CC(C)CCCCCCCCCCCN(C)OP(=O)(O)N(CC(N)=O)P(=O)(O)OC1C(OC[C@H]2O[C@@H](n3ccc(=O)[nH]c3=O)[C@H](O)[C@@H]2O)=C(CO)C(O)C1O", "value": "~6 µM"}
{"smiles": "CC(C)(C)NC(=O)[C@@H]1CCCN1C(=O)[C@@H](O)[C@H](Cc1ccccc1)NC(=O)[C@H](CC(N)=O)NC(=O)OCc1ccccc1", "value": ">40 µM"}
{"smiles": "COc1ccccc1N1CCN(c2c(F)cc3c(=O)c(C(=O)O)cn(C)c3c2CN(C)C)CC1", "value": "9.7 µM"}
{"smiles": "Cn1c2ccccc2c(=O)c2c(O)cccc21", "value": "14.8 µg/mL"}
{"smiles": "CCn1cc(C(=O)O)c(=O)c2cc(F)c(N3CCN(c4ccccc4OC)CC3)c(OC(F)F)c21", "value": "6.6 µM"}
{"smiles": "Nc1nc2c(ncn2COC(CO)CO)c(=O)[nH]1", "value": "35–72 µM"}
{"smiles": "Cn1cc(C(=O)O)c(=O)c2cc(F)c(N3CC=C(c4ccccc4)CC3)c(C(F)(F)F)c21", "value": "1.9 µM"}
{"smiles": "Cn1cc(C(=O)O)c(=O)c2cc(F)c(N3CC=C(c4ccccc4)CC3)c(C(F)(F)F)c21", "value": "1.6 µM"}
{"smiles": "COc1ccc2ccc3c(c2c1)OC1(CCN(Cc2ccc(C#N)cc2)CC1)NC3=O", "read by": "MTT", "value": "1300 µM"}
{"smiles": "Oc1cc2c(cc1O)C1c3ccc(O)c(O)c3CC[C@]1(O)C2", "read by": "MTT", "value": "40 µM"}
{"smiles": "CC(C)Nc1nc2cc(Cl)c(Cl)cc2n1[C@H]1OC[C@H](O)[C@@H]1O", "value": "15 µM"}
{"smiles": "N#Cc1c(C2CCNCC2)cc(-c2c(O)cccc2OCC2CC2)nc1N", "read by": "WST", "value": "11 µM"}
{"smiles": "CSc1nc(N)nc2c1ncn2[C@H]1C[C@H](O)[C@@H](CO)S1", "value": ">100 µM"}
{"smiles": "O=S(=O)(c1cccc2cnccc12)N1CCNCC1", "value": "8.4 µg/mL"}
{"smiles": "CC[C@@H]1/C=C(\\C)C[C@H](C)C[C@H](OC)[C@H]2O[C@@](O)(C(=O)C(=O)N3CCCC[C@H]3C(=O)O[C@H](/C(C)=C/[C@H]3CC[C@H](O)[C@H](OC)C3)[C@H](C)[C@@H](O)CC1=O)[C@H](C)C[C@@H]2OC", "value": "30 µg/mL"}
{"smiles": "COC(=O)[C@@H](NC(=O)[C@@H](NC(=O)CNC[C@H](O)[C@H](Cc1ccccc1)NC(=O)[C@H](C)NC(=O)[C@H](C)NC(=O)OCc1ccccc1)C(C)C)C(C)C", "value": ">100 µM"}
{"smiles": "O=C1C=CC(=C(c2ccc(O)cc2)c2ccc(O)cc2)C=C1", "value": ">100 µg/mL"}
{"smiles": "Nc1ncnc2c1ncn2[C@H]1C[C@@H](O)[C@H](O)[C@@H]1O", "value": "4.65 µM"}
{"smiles": "COc1ccc2[nH]c(=O)c(CN(Cc3cccnc3)S(=O)(=O)c3cccc4nsnc34)cc2c1", "read by": "MTT", "value": ">1 µM"}
{"smiles": "COP(=O)(c1cc(C)cc(CCC#N)c1)c1c(C(N)=O)[nH]c2ccc(Cl)c(F)c12", "read by": "MTS", "value": "16.6 µM"}
{"smiles": "O[C@@H]1[C@H](O)CO[C@H]1n1c(Br)nc2cc(Cl)c(Cl)cc21", "value": "47 µM"}
{"smiles": "C=CCSS/C=C/CS(=O)CC=C", "read by": "MTT", "value": "1.88 µM"}
{"smiles": "O=C(CCl)/C(=N\\O)c1ccc(Cl)cc1", "conditions": "24 h", "value": "5 µM"}

For reference, 3 entries again:

COP(=O)(c1cc(C)cc(CCC#N)c1)c1c(C(N)=O)[nH]c2ccc(Cl)c(F)c12 ; read by: MTS ; value: 16.6 µM
COC(=O)[C@@H](NC(=O)[C@@H](NC(=O)CNC[C@H](O)[C@H](Cc1ccccc1)NC(=O)[C@H](C)NC(=O)[C@H](C)NC(=O)OCc1ccccc1)C(C)C)C(C)C ; value: >100 µM
N#Cc1c(C2CCNCC2)cc(-c2c(O)cccc2OCC2CC2)nc1N ; read by: WST ; value: 11 µM

Conditions beyond the fields shown may differ between rows. a–b is a range or a potency band.